Test results as given in article PMC9570423.

How the values were obtained:
[1] = test system: PagRBc (Bacillus cereus F4810/72 (AH187), plasmid pCER270); test: EMSA; conditions: competing EMSAunspec7 present; recombinant protein; residues 1-99; protein details: C-terminal His6; probe letters rebuilt from the primers and the genome
[2] = test system: PagR1Bc (Bacillus cereus F4810/72 (AH187), plasmid pCER270); test: EMSA; conditions: competing EMSAunspec7 present; recombinant protein; residues 1-97; protein details: N-terminal His6; probe letters rebuilt from the primers and the genome

Sequence: GTGTTTCATTGAAAAATCCCTCTTTTAAAAAAAGTAAAATACAAAAACATTCATTTTCCTTAATACATTATTAACTTTTCTTCGCACAAGTTAATTAACCAAAATTATACAATTTTCATTATAAACAATTATTAATATTCACGCAATACGAATTATTAGAATATTAATAATTTTATTTATTTCAATTTCATACGGGTACGGCAACGATTACTTTTTTGGGGACTCGTTATATTGGCTAACAGAATTGGTATTCCGTTAACTTTTTATATTGATTTTGAAAACATTTGTTTACAGAATATAGATAAATCATTATAAAAATGTGTTTACAGAACTAATTTTTACAGGTTTTCTTGTAGTATTGTAATAAAATTTAATAAAAAGAACACAGCTATCCTTAGGAATCCGAATTAGAAATTACTGAATACAACATCAAAAAAATTATCAGATCGTAGCCGAAAGCCAAGAGGTTTCTTATCACCATGTATATCAATGAATAAGAAGTTAGAAGCACACGTTGAAGAAG (double strand) [cesP main promoter (cesPII), 523 bp]
- Kd [1]: 25 nM
- Kd [2]: 150 nM

The exact form of at least one protein or probe is not confirmed.
